Results as given in US11279734B2, “Solution-phase affinity selection of inhibitors from combinatorial peptide libraries” (Massachusetts Institute of Technology, priority 2017, dated 2022).

Target: SUMO-C-CA (HIV-1 C-terminal capsid domain) (Human immunodeficiency virus type 1 group M subtype B, UniProt P04591, A340G)
Conditions: biotinylated peptides, BLI

| Substance | binding to C-CA (in words) |
| --- | --- |
| IT(F2f)(S5)D(Cba)L(S5)YYGP [peptide 30a-M] | higher affinity than the reference bioactive NYAD peptide (37a-M) |
| IT(F2f)ED(Cba)LHYYGP [peptide 30a] | nanomolar peptide binder to C-CA |
